In US20250263469A1, “POLYPEPTIDES TARGETING SARS-COV-2 AND RELATED COMPOSITIONS AND METHODS” (HOSPITAL FOR SICK CHILDREN, published 2025):
Where two headings read alike, the source gives them in different places.

B1: mAb 298 (antibody, V domains shown)
VH: QVQLVQSGAEVKKPGASVKVSCKASGGTFSTYGISWVRQAPGQGLEWMGWISPNSGGTDLAQKFQGRVTMTRDTSTSTVYMELSSLRSEDTAVYYCASDPRDDIAGGYWGQGTLVTVSS
VL: not shown
B2: mAb 80 (antibody, V domains shown)
VH: QVQLVQSGAEVKKPGSSVKVSCKASGGTFNRYAFSWVRQAPGQGLEWMGGIIPIFGTANYAQKFQGRVTITADESTSTAYMELSSLRSEDTAVYYCARSTRELPEVVDWYFDLWGRGTLVTVSS
VL: DIVMTQSPDSLAVSLGERATINCKSSQSVLYSSNNKNYLAWYQQKPGQPPKLLIYWASTRESGVPDRFSGSGSGTDFTLTISSLQAEDVAVYYCQQYYSAPLTFGGGTKVEIKR

Legend:
[1] = biological target: T1, SARS-CoV-2 Spike on pseudotyped virus (PsV) (SARS-CoV-2, UniProt P0DTC2 14-1273); experiment: cell-based or functional assay
[2] = biological target: T2, SARS-CoV-2 receptor binding domain (RBD), wild type (BEI NR52309) (SARS-CoV-2, UniProt P0DTC2 319-541); experiment: method and antibody format not given
[3] = biological target: T1, SARS-CoV-2 Spike on pseudotyped virus …; experiment: cell-based or functional assay; remark: listed apart in the source
[4] = biological target: T2, SARS-CoV-2 receptor binding domain …; experiment: method and antibody format not given; remark: listed apart in the source

| Binder | Median IC50, SARS-CoV-2 PsV neutralization [1] [µg/mL] | Kd [2] [nM] | IC50 SARS-CoV2 PsV, IgG [3] [µg/mL] | Kd [4] [nM] |
| --- | --- | --- | --- | --- |
| B1 | 0.28 | 24 |  |  |
| B2 | 0.1 |  | 0.1 | 142 |
